Anti-infective test results gathered from many reports (values: NIAID ChemDB through PubChem).

Common to all: growth or infection tests; species: Candida albicans; endpoint: MIC

Conditions beyond the fields shown may differ between rows.

smiles	strain	result
CCCCCOc1ccc(-c2ccc(-c3ccc(C(=O)N[C@H]4CCCNC(=O)[C@@H]5[C@H](N)CCN5C(=O)[C@H]([C@@H](C)O)NC(=O)[C@H](CCc5ccc(O)cc5)NC(=O)[C@@H]5C[C@@H](O)CN5C(=O)[C@H]([C@@H](C)O)NC4=O)cc3)cc2)cc1	ATCC 10231	0.2 µg/mL
Cc1c(S(=O)(=O)c2ccccc2)[n+](=O)c2cc(Cl)ccc2n1[O-]	Clinical isolate 11	31.25 µg/mL
Cc1ccc(NC(=S)NNC(=O)Cc2csc3nc(-c4ccc(Br)cc4)cn23)cc1	ATCC 10231	>32 µg/mL
COc1ccc(C2CC(c3ccc4ccccc4c3)=Cc3[nH][nH]c(=O)c32)cc1	-	50 µg/mL
CNC(=S)NNC(=O)Cc1csc2nc(-c3ccc(Br)cc3)cn12	ATCC 10231	32 µg/mL
CC1OC(OC2CCC(c3ccc4c(c3O)C(=O)C3=C(C4=O)[C@@]4(O)C(=O)C[C@](C)(OC5C=CC(=O)C(C)O5)C[C@@]4(O)C=C3)OC2C)C=CC1=O	6 strains	≥43 µg/mL
COc1cc(O)c2c(c1)C(=O)c1c(cc3c(c1O)-c1c(cc(C)c(C(=O)NC(CO)C(=O)O)c1O)[C@H](OC1OC(C)C(N(C)C)C(OC4OCC(O)C(O)C4O)C1O)[C@H]3O)C2=O	IAM4888	6.3 µg/mL
N=C(N)c1ccc2oc(/C=C/C=C/C=C/c3cc4cc(C(=N)N)ccc4o3)cc2c1	-	>60 µg/mL
O=C(Cc1csc2nc(-c3ccc(Br)cc3)cn12)N/N=C1\SCC(=O)N1c1ccc(Br)cc1	ATCC 10231	>32 µg/mL
Cc1cc(COc2ccc(Oc3ccc(Cl)cc3)cc2)n(O)c(=O)c1	TIMM2640	8 µg/mL
Clc1ccc(COC(Cn2ccnc2)c2ccc(Cl)cc2Cl)c(Cl)c1	Y1-3	4 µg/mL
NC(N)=Nc1ccc(-c2cc3cc(N=C(N)N)ccc3o2)cc1	-	60 µg/mL
N[C@H]1CCC[C@H]1C(=O)O	ATCC 32354 (B311)	5 µg/mL
C=CCN1C(=O)CS/C1=N\NC(=O)Cc1csc2nc(-c3ccc(Br)cc3)cn12	ATCC 10231	>32 µg/mL
N=C(N)c1cccc(-c2cc3ccc(C(=N)N)cc3s2)c1	-	>60 µg/mL
O=C(Cc1csc2nc(-c3ccc(Br)cc3)cn12)NNC(=S)Nc1ccc(Cl)cc1	ATCC 10231	>32 µg/mL
CCCCCOc1ccc(-c2ccc(-c3ccc(C(=O)N[C@H]4CCCNC(=O)[C@@H]5C[C@H](N)CN5C(=O)[C@H](CO)NC(=O)[C@H](CCc5ccc(O)cc5)NC(=O)[C@@H]5C[C@@H](O)CN5C(=O)[C@H]([C@@H](C)O)NC4=O)cc3)cc2)cc1	ATCC 10231	0.1 µg/mL
CN1C(=O)CS/C1=N\NC(=O)Cc1csc2nc(-c3ccc(Br)cc3)cn12	ATCC 10231	32 µg/mL
O=c1[nH][nH]c2c1C(c1ccc(Br)cc1)CC(c1ccc3ccccc3c1)=C2	-	25 µg/mL
O=C(Cc1csc2nc(-c3ccc(Br)cc3)cn12)N/N=C1\SCC(=O)N1c1ccc(Cl)cc1	ATCC 10231	>32 µg/mL
Cc1c(Sc2ccccc2)[n+](=O)c2cc(C(F)(F)F)ccc2n1[O-]	Clinical isolate 8	31.25 µg/mL
N=C(N)c1ccc2oc(-c3cnc(-c4cc5cc(C(=N)N)ccc5o4)[nH]3)cc2c1	-	>60 µg/mL
Cc1c(S(=O)(=O)c2ccccc2)[n+](=O)c2ccccc2n1[O-]	Clinical isolate 11	31.25 µg/mL
CCCCCCCCCOc1ccc(N2CCN(c3ccc(C(=O)N[C@H]4CCCNC(=O)[C@@H]5C[C@H](N)CN5C(=O)[C@H]([C@@H](C)O)NC(=O)[C@H](CCc5ccc(O)cc5)NC(=O)[C@@H]5C[C@@H](O)CN5C(=O)[C@H]([C@@H](C)O)NC4=O)cc3)CC2)cc1	ATCC 38247	0.2 µg/mL
N=C(N)c1ccc(Oc2ccc(/C=C/c3cc4cc(C(=N)N)ccc4o3)cc2)cc1	-	>60 µg/mL
CCCCCOc1ccc(-c2ccc(-c3ccc(C(=O)N[C@H]4CCCNC(=O)[C@@H]5C[C@H](N)CN5C(=O)[C@H](CC)NC(=O)[C@H](CCc5ccc(O)cc5)NC(=O)[C@@H]5C[C@@H](O)CN5C(=O)[C@H]([C@@H](C)O)NC4=O)cc3)cc2)cc1	ATCC 38247	0.39 µg/mL
CCOc1cc2c(cc1F)n([O-])c(C)c(Cl)[n+]2=O	Clinical isolate 4	15.6 µg/mL
N=C(N)c1ccc(N=NNc2ccc(C(=N)N)cc2)cc1	-	10 µg/mL
Cc1c(Cl)[n+](=O)c2cc(Cl)ccc2n1[O-]	Clinical isolate 6	31.25 µg/mL
O=c1[nH][nH]c2c1C(c1ccc(Cl)cc1)CC(c1ccc3ccccc3c1)=C2	-	6.25 µg/mL

Blank or dashed fields: not listed here.